Results of unrelated studies side by side (data: NIAID ChemDB).

Shared fields: whole-cell or culture tests; organism: Candida albicans

Two numbers with a dash give a range or band. MIC50, MIC90 and the like: level of inhibition, or share of isolates inhibited. Conditions beyond the fields shown may differ between rows. Blank or dashed fields: not listed here.

CCCCN(Cc1cn(Cc2ccc(Cl)cc2Cl)nn1)CC(O)(Cn1cncn1)c1ccc(F)cc1F ; strain or isolate: SC5314 ; read-out: MIC80 ; result: 4 µg/mL
Clc1ccc(-c2cn(CC3CC3)cc2C(c2ccccc2)n2ccnc2)cc1 ; read-out: MIC ; result: 0.025 µg/mL
CCCCN1C(=O)C2(CCN(Cc3ccccc3)CC2=O)Sc2ccccc21 ; strain or isolate: ATCC 14053 ; read-out: MIC ; result: ≥100 µg/mL
CCCCN(Cc1cn(Cc2ccccc2C#N)nn1)CC(O)(Cn1cncn1)c1ccc(F)cc1F ; strain or isolate: SC5314 ; read-out: MIC80 ; result: 1 µg/mL
CNc1ccc(C(=O)CC(O)CCC(C)C2OC(=O)CC(O)CC(=O)CC(O)CC(O)CC(O)CC(O)CC3(O)CC(O)C(C(=O)NCCN(C)C)C(CC(O[C@@H]4O[C@H](C)[C@@H](O)[C@H](NC(=O)CN5CCN(CCO)CC5)[C@@H]4O)/C=C/C=C/C=C/C=C\C=C/C=C/C=C/C2C)O3)cc1 ; strain or isolate: 200 ; read-out: MIC ; result: 0.03 µg/mL
CSc1ccccc1NC1CCCCCCCCCCC1.CSc1ccccc1NC1CCCCCCCCCCC1 ; strain or isolate: ATCC 10231 ; read-out: MIC ; result: >100 µg/mL
COc1ccc(C(Cc2ccccc2-n2cccc2)n2ccnc2)cc1 ; read-out: MIC ; result: 7.8 µg/mL
CNc1ccc(C(=O)CC(O)CCC(C)C2OC(=O)CC(O)CC(=O)CC(O)CC(O)CC(O)CC(O)CC3(O)CC(O)C(C(=O)O)C(CC(O[C@@H]4O[C@H](C)[C@@H](O)[C@H](N)[C@@H]4O)/C=C/C=C/C=C/C=C\C=C/C=C/C=C/C2C)O3)cc1 ; strain or isolate: 200 ; read-out: MIC ; result: 0.12 µg/mL
CCCCN(Cc1cn(Cc2ccc(C)cc2)nn1)CC(O)(Cn1cncn1)c1ccc(F)cc1F ; strain or isolate: Y0109 ; read-out: MIC80 ; result: <0.125 µg/mL
C[C@H]1[C@H](O)[C@@H](C)/C=C/C=C/C=C/C=C/C=C/C=C/C=C/[C@H](O[C@@H]2O[C@H](C)[C@@H](O)[C@H](N)[C@@H]2O)C[C@@H]2O[C@](O)(C[C@@H](O)C[C@@H](O)CC[C@H](O)[C@@H](O)C[C@@H](O)CC(=O)O[C@H]1C)C[C@H](O)[C@H]2C(=O)O ; strain or isolate: 200 ; read-out: MIC ; result: 0.48 µg/mL
CCn1cc(-c2ccc(Cl)cc2Cl)c(C(c2ccc(Cl)cc2Cl)n2ccnc2)c1 ; read-out: MIC ; result: 0.23 µg/mL
CNc1ccc(C(=O)CC(O)CCC(C)C2OC(=O)CC(O)CC(=O)CC(O)CC(O)CC(O)CC(O)CC3(O)CC(O)C(C(=O)N4CCN(C)CC4)C(CC(O[C@@H]4O[C@H](C)[C@@H](O)[C@H](NC(=O)CN(C)C)[C@@H]4O)/C=C/C=C/C=C/C=C\C=C/C=C/C=C/C2C)O3)cc1 ; strain or isolate: 73 ; read-out: MIC ; result: 0.03 µg/mL
Cc1c(Sc2ccccc2)[n+](=O)c2cc(C(F)(F)F)ccc2n1[O-] ; strain or isolate: Clinical isolate 3 ; read-out: MIC ; result: 62.5 µg/mL
Fc1ccc(-n2ccc(C(c3ccc(Cl)cc3)n3ccnc3)c2)cc1 ; read-out: MIC ; result: 2.7 µg/mL
CNc1ccc(C(=O)CC(O)CCC(C)C2OC(=O)CC(O)CC(=O)CC(O)CC(O)CC(O)CC(O)CC3(O)CC(O)C(C(=O)N4CCN(C)CC4)C(CC(O[C@@H]4O[C@H](C)[C@@H](O)[C@H](NC(=O)CN5CCN(C)CC5)[C@@H]4O)/C=C/C=C/C=C/C=C\C=C/C=C/C=C/C2C)O3)cc1 ; strain or isolate: 200 ; read-out: MIC ; result: 0.06 µg/mL
Cc1c(S(=O)(=O)c2ccccc2)[n+](=O)c2ccccc2n1[O-] ; strain or isolate: Clinical isolate 19 ; read-out: MIC ; result: 7.8 µg/mL
CNc1ccc(C(=O)CC(O)CCC(C)C2OC(=O)CC(O)CC(=O)CC(O)CC(O)CC(O)CC(O)CC3(O)CC(O)C(C(=O)N4CCCCC4)C(CC(O[C@@H]4O[C@H](C)[C@@H](O)[C@H](N)[C@@H]4O)/C=C/C=C/C=C/C=C\C=C/C=C/C=C/C2C)O3)cc1 ; strain or isolate: 73 ; read-out: MIC ; result: 0.03 µg/mL
CCCCN(Cc1cn(Cc2c(Cl)cccc2Cl)nn1)CC(O)(Cn1cncn1)c1ccc(F)cc1F ; strain or isolate: Y0109 ; read-out: MIC80 ; result: 8 µg/mL
Cn1cc(-c2ccccc2)c(C(c2ccc3ccccc3c2)n2ccnc2)c1 ; read-out: MIC ; result: 63 µg/mL
CCCCN(Cc1cn(Cc2ccccc2Br)nn1)CC(O)(Cn1cncn1)c1ccc(F)cc1F ; strain or isolate: SC5314 ; read-out: MIC80 ; result: 4 µg/mL
Cc1c(S(=O)(=O)c2ccccc2)[n+](=O)c2cc(Cl)ccc2n1[O-] ; strain or isolate: Clinical isolate 23 ; read-out: MIC ; result: 15.6 µg/mL
CC(=O)/C=C1\Sc2ccccc2N1C1CCCCCC1 ; strain or isolate: ATCC 14053 ; read-out: MIC ; result: 25 µg/mL
C[C@H]1[C@H]2CC[C@H]3[C@@H]4CC=C5C[C@@H](N(C)C)CC[C@]5(C)[C@H]4CC[C@]23CN1C ; strain or isolate: ATCC 14053 ; read-out: MIC ; result: 31–62 µg/mL
Cc1c(Sc2ccccc2)[n+](=O)c2cc(Cl)ccc2n1[O-] ; strain or isolate: Clinical isolate 21 ; read-out: MIC ; result: 31.25 µg/mL
CCC(C)CC(C)CCCCCCCCC(=O)N[C@H]1C[C@@H](O)[C@H](NCCN)NC(=O)[C@@H]2[C@@H](O)CCN2C(=O)[C@H]([C@H](O)CCN)NC(=O)[C@H]([C@H](O)[C@@H](O)c2ccc(O)cc2)NC(=O)[C@@H]2C[C@@H](O)CN2C(=O)[C@H]([C@@H](C)O)NC1=O ; strain or isolate: W1016 ; read-out: MIC ; read by: broth dilution ; result: 1 µg/mL
CCC(=O)/C=C1\Sc2ccccc2N1C1CCCCCC1 ; strain or isolate: ATCC 10231 ; read-out: MIC ; result: 50 µg/mL
CCCCN(Cc1cn(Cc2cccc(F)c2)nn1)CC(O)(Cn1cncn1)c1ccc(F)cc1F ; strain or isolate: SC5314 ; read-out: MIC80 ; result: <0.125 µg/mL
CC1(C)S[C@@H]2[C@H](NC(=O)[C@H](N)c3ccccc3)C(=O)N2[C@H]1C(=O)O ; strain or isolate: ATCC 14053 ; read-out: MIC ; result: >125 µg/mL
CCCCN(Cc1cn(Cc2ccc(F)cc2)nn1)CC(O)(Cn1cncn1)c1ccc(F)cc1F ; strain or isolate: Y0109 ; read-out: MIC80 ; result: 0.0625 µg/mL
Cn1cc(-c2ccccc2Cl)c(C(c2ccc(Cl)cc2Cl)n2ccnc2)c1 ; read-out: MIC ; result: 0.36 µg/mL
CCCCN(Cc1cn(Cc2ccccc2[N+](=O)[O-])nn1)CC(O)(Cn1cncn1)c1ccc(F)cc1F ; strain or isolate: SC5314 ; read-out: MIC80 ; result: 2 µg/mL
CC(C)C(=O)/C=C1\Sc2ccccc2N1/C1=C/CCCCCCCCCC1 ; strain or isolate: ATCC 10231 ; read-out: MIC ; result: >100 µg/mL

Repeating the first 2 entries:

| SMILES | strain or isolate | read-out | read by | result |
|---|---|---|---|---|
| CCCCN(Cc1cn(Cc2ccc(Cl)cc2Cl)nn1)CC(O)(Cn1cncn1)c1ccc(F)cc1F | SC5314 | MIC80 |  | 4 µg/mL |
| Clc1ccc(-c2cn(CC3CC3)cc2C(c2ccccc2)n2ccnc2)cc1 |  | MIC |  | 0.025 µg/mL |